A mixed list of measured activities; the numbers were collected in NIAID ChemDB.

Common to all: tests in culture; species: Hepatitis C virus; endpoint: EC50

ECn is the concentration giving n% inhibition of infection, replication or growth. Blank or dashed fields: not listed here. Rows are shuffled and stem from different studies.

SMILES,cell line,strain,read by,result
COc1cc2c(=O)c(-c3noc(C4(c5ccccc5)CC4)n3)cn(Cc3ccc(Cl)cc3)c2cc1OC,,1b,replicon,>10 µM
CNC(=O)c1c(-c2ccc(F)cc2)oc2cc(C3CNC(=O)C3)c(OC)cc12,Huh7,,replicon,<10 µM
CCOc1nc(NCc2ccc(C(F)(F)F)c(F)c2)nc2ccc(-c3ccc(F)cc3)nc12,,,replicon,<0.1 µM
CCCCOc1ccc2oc(-c3ccccc3)c(C(=O)NC)c2c1,Huh7,,replicon,<30 µM
C=C[C@@H]1C[C@]1(NC(=O)[C@@H]1C[C@@H](Oc2cc(-c3ccccc3)nc3cc(OC)ccc23)CN1C(=O)[C@@H](NC(=O)C1(O)CC1)C(C)(C)C)C(=O)NS(=O)(=O)C1CC1,Huh7,1b,replicon,<5 µM
CC(C)N1CCC(Nc2nc(NCc3ccc(F)cc3)nc3ccc(-c4ccc(F)cc4)nc23)CC1,,,replicon,<0.1 µM
CCCCCOc1ccc(N(C)c2nc(C(=O)O)cs2)cc1C(F)(F)F,,,,<1 µM
COc1cc2c(=O)c(-c3noc(Cc4ccccc4)n3)cn(Cc3ccc(Cl)cc3)c2cc1OC,,1b,replicon,>10 µM
CONC(=O)c1ccc(-c2ccc3nc(N)nc(OC(C)C)c3n2)cc1,Huh7,,replicon,<0.3 µM
CNC(=O)c1c(-c2ccc(F)cc2)oc2cc(N(C)S(C)(=O)=O)c(OCC(=O)OC(C)(C)C)cc12,Huh7,,replicon,<1 µM
NS(=O)(=O)c1ccc(CNc2nc(NCC(F)(F)F)c3nc(-c4ccc(Cl)c(S(=O)(=O)NC5CCNC5)c4)ccc3n2)cc1,,,replicon,<0.1 µM
CCCCCCCOc1ccc(N(C(N)=O)c2nc(-c3ccc(C(=O)N(C)C)nc3)cs2)cc1,,,,>10 µM
CN1CCN(c2cc3c(cc2F)c(=O)c(-c2noc(Cc4ccc(F)cc4)n2)cn3Cc2ccc(C(F)(F)F)cc2)CC1,,1b,replicon,<0.5 µM
C=C[C@@H]1C[C@]1(NC(=O)[C@@H]1C[C@@H](Oc2cc(-c3ccccc3)nc3cc(OC)ccc23)CN1C(=O)[C@@H](NC(=O)OCC(C)(C)C)C(C)(C)C)C(=O)NS(=O)(=O)C1CC1,Huh7,1b,replicon,<0.05 µM
CC(=O)N1CCN(c2cc3c(cc2F)c(=O)c(-c2noc(Cc4ccccc4)n2)cn3Cc2ccc(Cl)cc2)CC1,,1b,replicon,<2 µM
Cn1cc(-c2ccc3nc(NCc4ccc(S(N)(=O)=O)cc4)nc(NCC(F)(F)F)c3n2)cn1,,,replicon,<0.1 µM
C=C[C@@H]1C[C@]1(NC(=O)[C@@H]1C[C@@H](Oc2cc(-c3ccccc3)nc3cc(OC)ccc23)CN1C(=O)[C@@H](NC(=O)COc1ccc(F)cc1)C(C)(C)C)C(=O)NS(=O)(=O)C1CC1,Huh7,1b,replicon,<0.5 µM
CCCCCCCCOc1ccc(N(C(N)=O)c2nc(-c3ccc(C(=O)N(C)C)nc3)cs2)cc1,,,,>10 µM
C=C[C@@H]1C[C@]1(NC(=O)[C@@H]1C[C@@H](Oc2cc(-c3ccccc3)nc3cc(OC)ccc23)CN1C(=O)[C@@H](NC(=O)OC(C)(C)C)C(C)(C)C)C(=O)NS(=O)(=O)c1ccccc1C,Huh7,1b,replicon,<0.5 µM
CN1CCN(c2cc3c(cc2F)c(=O)c(-c2noc(C(C)(C)c4ccccc4)n2)cn3C2(c3ccc(C(F)(F)F)cc3)CC2)CC1,,1b,replicon,>10 µM
CCOc1nc(NCc2ccc(F)cc2)nc2ccc(-c3ccc(NC(=O)[C@H]4CCNC4)c(F)c3)nc12,,,replicon,<0.1 µM
CC[C@@H]1C[C@]1(NC(=O)[C@@H]1C[C@@H](Oc2cc(-c3ccccc3)nc3cc(OC)ccc23)CN1C(=O)[C@@H](NC(=O)OC1CCCC1)C(C)C)C(=O)NS(=O)(=O)C1CC1,Huh7,1b,replicon,<0.05 µM
CNC(=O)c1c(-c2ccc(F)cc2)oc2cc(N3CCOCC3)c(OCC(C)O)cc12,Huh7,,replicon,<10 µM
CCOc1nc(NCc2ccc(F)cc2)nc2ccc(-c3ccc(NC(=O)[C@H]4CCNC4)cc3)nc12,,,replicon,<0.1 µM
CCCCCCCCOc1ccc(N(C(=O)c2cccnc2)c2nc(-c3nc4ccccc4s3)cs2)cc1C(F)(F)F,,,,<1 µM
C=C[C@@H]1C[C@]1(NC(=O)[C@@H]1C[C@@H](Oc2cc(-c3ccccc3)nc3cc(OC)ccc23)CN1C(=O)[C@@H](N)C(C)(C)C)C(=O)NS(=O)(=O)C1CC1,Huh7,1b,replicon,<5 µM
CCNc1cc2oc(-c3ccc(F)cc3)c(C(=O)NC)c2c(Cl)c1OS(C)(=O)=O,Huh7,,replicon,<10 µM
Nc1nc(N2CCOCC2)c2nc(-c3ccc(C(=O)NC4CC4)cc3)ccc2n1,Huh7,,replicon,<0.3 µM
CNC(=O)c1c(-c2ccc(F)cc2)oc2cc(N(Cc3ccc(C(=O)OC)cc3)S(C)(=O)=O)c(OC(C)C)cc12,Huh7,,replicon,<1 µM
CCCCCc1nc(-c2cn(Cc3ccc(C(F)(F)F)cc3F)c3cc(N4CCN(C)CC4)c(F)cc3c2=O)no1,,1b,replicon,>10 µM
CCOc1cc(F)ccc1-c1oc2cc(-c3c(C)noc3C)c(OC)cc2c1C(=O)NC,Huh7,,replicon,>30 µM
CCOc1nc(NCc2cocn2)nc2ccc(-c3ccc(F)cc3)nc12,,,replicon,<0.1 µM

For reference, 4 entries again:

CCNc1cc2oc(-c3ccc(F)cc3)c(C(=O)NC)c2c(Cl)c1OS(C)(=O)=O ; cell line: Huh7 ; read by: replicon ; result: <10 µM
CNC(=O)c1c(-c2ccc(F)cc2)oc2cc(N(C)S(C)(=O)=O)c(OCC(=O)OC(C)(C)C)cc12 ; cell line: Huh7 ; read by: replicon ; result: <1 µM
CC(C)N1CCC(Nc2nc(NCc3ccc(F)cc3)nc3ccc(-c4ccc(F)cc4)nc23)CC1 ; read by: replicon ; result: <0.1 µM
CONC(=O)c1ccc(-c2ccc3nc(N)nc(OC(C)C)c3n2)cc1 ; cell line: Huh7 ; read by: replicon ; result: <0.3 µM